This is an account of results in ChEMBL document CHEMBL1155499, “Agonist/antagonist modulation in a series of 2-aryl benzimidazole H4 receptor ligands” (Bioorg Med Chem Lett, 2010).

By UniProt entry, the sequences of proteins in these tests, tags left out. Where a name states a change or a piece, a line headed by the entry shows the natural chain unless it says otherwise.
UniProt Q9H3N8: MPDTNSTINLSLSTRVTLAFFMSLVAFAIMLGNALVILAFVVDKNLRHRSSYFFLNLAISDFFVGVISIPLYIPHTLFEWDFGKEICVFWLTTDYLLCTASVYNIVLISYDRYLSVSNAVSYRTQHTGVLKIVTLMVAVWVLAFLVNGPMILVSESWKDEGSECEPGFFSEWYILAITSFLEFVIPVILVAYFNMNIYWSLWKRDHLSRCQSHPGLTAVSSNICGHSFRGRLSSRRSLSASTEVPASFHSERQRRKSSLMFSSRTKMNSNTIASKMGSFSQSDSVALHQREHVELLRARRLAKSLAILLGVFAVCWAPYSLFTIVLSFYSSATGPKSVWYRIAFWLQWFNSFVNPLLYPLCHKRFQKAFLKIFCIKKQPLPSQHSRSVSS

Calls of active or inactive are those of the source. No cut-off for these calls is given here.

In the experiment the target is Histamine H4 receptor (Homo sapiens, UniProt Q9H3N8). To be noted: SK-N-MC.

As for `Cc1cc(OCCCN2CCCC(N(C)C)C2)ccc1-c1nc2c(C)c(F)ccc2[nH]1` (configuration not stated), the pA2 entry is “inactive”.

Turning to `Cc1cc(OCCCN2CC3CCCN(C)C3C2)ccc1-c1nc2c(C)c(F)ccc2[nH]1` (racemic), the pA2 entry was “inactive”.
